This series is described as follows: general procedure: Boc solid-phase peptide synthesis; BHA-photoresin [4-(2-chloropropionyl)phenoxy]acetamidomethyl-copoly(styrene-1% divinyl-benzene) resin; BOP/HOBt. The note with it: late stage modification step, analytical HPLC.

For the substance “PhCH2 CH2 CO-N-Me-Val-Ile-Asn-Asp-NHCH[CH2 CH(CH3)2 ]-5-1H-tetrazole”, the “crude HPLC purity” value was 90%.
With “PhCH2 CH2 CO-N-Me-Val-Ile-NHCH[CH2 -5-1H-tetrazole]CO-Asp-Leu-OH”, the “final HPLC purity” value was determined as 100% pure.

(Values after patent US5648337 (dated 1997).)
